Measured values: patent US20240109955A1 (published 2024)

How the values were obtained:
Test in all cases: cell-based or functional assay
[1] = biological target: SARS-CoV-2 spike protein, Omicron BF.7 (SARS-CoV-2)
[2] = biological target: SARS-CoV-2 Omicron BA.4/5 spike protein (SARS-CoV-2, UniProt P0DTC2 14-1273)
[3] = biological target: SARS-CoV-2 Omicron BQ.1.1 spike protein (SARS-CoV-2, UniProt P0DTC2 14-1273)
[4] = biological target: SARS-CoV-2 spike protein, Omicron sublineage BA.2.12.1 (SARS-CoV-2, UniProt P0DTC2 14-1273)

Binder | IC50, pseudovirus neutralization [1] | IC80, pseudovirus neutralization [1] | IC50, pseudovirus neutralization [2] | IC80, pseudovirus neutralization [2] | IC50, pseudovirus neutralization [3] | IC80, pseudovirus neutralization [3] | IC50, pseudovirus neutralization [4] | IC80, pseudovirus neutralization [4]
MX1087 (antibody) chain 1: QTVVTQEPSFSVSPGGTVTLTCGLSSGSVSTAYFPSWYQQTPGQAPRTLIYGTNTRSSGVPDRFSGSILGNKAALTITGAQADDESDYYCVLYMGRGIVVFGGGTKLTVLGGSSGEIVMTQSPAILSVSPGERATLSCRASQSVAINLAWYQQKPGQAPRLLIYAASSRATGIPGRFSGSGSETNFTLTISSLQSGDFAVYYCQQYITWPPSYTFGQGTKLEIKGGGGSGGSGSGGGGSASGSGEVQLVESGGALIQPGGSLRLSCAASGIIVSANYMSWVRQAPGKGLEWVSVIYSGGSTFYADSVKGRFTISRDNSKNTLYLEMNSLRAEDTAVYYCARDAPILGVSDWGQGTLVTVSSGGSSGQVQLVESGGGVVQPGRSLRLSCAASGFTLSSYGMHWVRQAPGKGLEWVAVISYDGSNKYYVDSVKGRFTISRDNSKNTLYLQMNSLRAEDTAVYYCRWAYWELLPDYYYGMDVWGQGTTVTVSSASGGSGDKTHTCPPCPAPELLGGPSVFLFPPKPKDTLMISRTPEVTCVVVDVSHEDPEVKFNWYVDGVEVHNAKTKPREEQYNSYVVSVLTVLHQDWLNGKEYKCKVSNKALPAPIEKTISKAKGQPREPQVYTLPPCRDELTKNQVSLWCLVKGFYPSDIAVEWESNGQPENNYKTTPPVLDSDGSFFKKLTVDKSRWQQGNVFSCSVLHEALHSHYTQKSLSLSPG chain 2: EIVLTQSPGTLSLSPGETATLSCRASQSFSSDLAWYQQKPGQAPRLLIYGASSRATGIPDRFSGSGSGTDFTLTISRLEPADFAVYYCQQYGSSPPVTFGGGTKVEIKGGSSGDTVMTQSPLSLPVTPGEPASISCRSSQSLLNSNGYNYLDWYVQKPGQSPQLLIYLGSNRASGVPDRFSGSGSGTDFTLKISRVEAEDVGVYYCMQPLQTPLFTFGPGTKVEIKGGGGSGGSGSGGGGSASGSGQVTLRESGPALVKPTQTLTLTCTFSGFSLSTRGVCVSWIRQPPGKALEWLAFIDWDDDKYYNTSLKTRLTISKDTSKNQVVLTMTNVHPVDTATYYCARISSHHGSSWCTTFDYWGQGALVTVSAGGSSGEVQLVESGGGLIQPGGSLRLSCAASGVIVSYNYMNWVRQAPGKGLEWVSVIYSGGSTFYADSVRGRFTISRDNSKNTLYLQMNSLRAEDTAVYYCARDLGPAGAFDIWGLGTMVTVSSASGGSGDKTHTCPPCPAPELLGGPSVFLFPPKPKDTLMISRTPEVTCVVVDVSHEDPEVKFNWYVDGVEVHNAKTKPREEQYNSYVVSVLTVLHQDWLNGKEYKCKVSNKALPAPIEKTISKAKGQPREPQVCTLPPSRDELTKNQVSLSCAVKGFYPSDIAVEWESNGQPENNYKTTPPVLDSDGSFFLVSKLTVDKSRWQQGNVFSCSVLHEALHSHYTQKSLSLSPG | 9.06 ng/mL | 31.4 ng/mL |  |  |  |  |  | 
MX1086 (antibody) chain 1: EIVMTQSPAILSVSPGERATLSCRASQSVAINLAWYQQKPGQAPRLLIYAASSRATGIPGRFSGSGSETNFTLTISSLQSGDFAVYYCQQYITWPPSYTFGQGTKLEIKGGSSGDTVMTQSPLSLPVTPGEPASISCRSSQSLLNSNGYNYLDWYVQKPGQSPQLLIYLGSNRASGVPDRFSGSGSGTDFTLKISRVEAEDVGVYYCMQPLQTPLFTFGPGTKVEIKGGGGSGGSGSGGGGSASGSGQVTLRESGPALVKPTQTLTLTCTFSGFSLSTRGVCVSWIRQPPGKALEWLAFIDWDDDKYYNTSLKTRLTISKDTSKNQVVLTMTNVHPVDTATYYCARISSHHGSSWCTTFDYWGQGALVTVSAGGSSGEVQLVESGGALIQPGGSLRLSCAASGIIVSANYMSWVRQAPGKGLEWVSVIYSGGSTFYADSVKGRFTISRDNSKNTLYLEMNSLRAEDTAVYYCARDAPILGVSDWGQGTLVTVSSASGGSGDKTHTCPPCPAPELLGGPSVFLFPPKPKDTLMISRTPEVTCVVVDVSHEDPEVKFNWYVDGVEVHNAKTKPREEQYNSYVVSVLTVLHQDWLNGKEYKCKVSNKALPAPIEKTISKAKGQPREPQVCTLPPSRDELTKNQVSLSCAVKGFYPSDIAVEWESNGQPENNYKTTPPVLDSDGSFFLVSKLTVDKSRWQQGNVFSCSVLHEALHSHYTQKSLSLSPG chain 2: QTVVTQEPSFSVSPGGTVTLTCGLSSGSVSTAYFPSWYQQTPGQAPRTLIYGTNTRSSGVPDRFSGSILGNKAALTITGAQADDESDYYCVLYMGRGIVVFGGGTKLTVLGGSSGEIVLTQSPGTLSLSPGETATLSCRASQSFSSDLAWYQQKPGQAPRLLIYGASSRATGIPDRFSGSGSGTDFTLTISRLEPADFAVYYCQQYGSSPPVTFGGGTKVEIKGGGGSGGSGSGGGGSASGSGEVQLVESGGGLIQPGGSLRLSCAASGVIVSYNYMNWVRQAPGKGLEWVSVIYSGGSTFYADSVRGRFTISRDNSKNTLYLQMNSLRAEDTAVYYCARDLGPAGAFDIWGLGTMVTVSSGGSSGQVQLVESGGGVVQPGRSLRLSCAASGFTLSSYGMHWVRQAPGKGLEWVAVISYDGSNKYYVDSVKGRFTISRDNSKNTLYLQMNSLRAEDTAVYYCRWAYWELLPDYYYGMDVWGQGTTVTVSSASGGSGDKTHTCPPCPAPELLGGPSVFLFPPKPKDTLMISRTPEVTCVVVDVSHEDPEVKFNWYVDGVEVHNAKTKPREEQYNSYVVSVLTVLHQDWLNGKEYKCKVSNKALPAPIEKTISKAKGQPREPQVYTLPPCRDELTKNQVSLWCLVKGFYPSDIAVEWESNGQPENNYKTTPPVLDSDGSFFKKLTVDKSRWQQGNVFSCSVLHEALHSHYTQKSLSLSPG | 8.49 ng/mL | 22.3 ng/mL |  |  |  |  |  | 
MX1020 (antibody) DTVMTQSPLSLPVTPGEPASISCRSSQSLLNSNGYNYLDWYVQKPGQSPQLLIYLGSNRASGVPDRFSGSGSGTDFTLKISRVEAEDVGVYYCMQPLQTPLFTFGPGTKVEIKGGSSGDTVMTQSPLSLPVTPGEPASISCRSSQSLLNSNGYNYLDWYVQKPGQSPQLLIYLGSNRASGVPDRFSGSGSGTDFTLKISRVEAEDVGVYYCMQPLQTPLFTFGPGTKVEIKGGGGSGGSGSGGGGSASGSGQVTLRESGPALVKPTQTLTLTCTFSGFSLSTRGVCVSWIRQPPGKALEWLAFIDWDDDKYYNTSLKTRLTISKDTSKNQVVLTMTNVHPVDTATYYCARISSHHGSSWCTTFDYWGQGALVTVSAGGSSGQVTLRESGPALVKPTQTLTLTCTFSGFSLSTRGVCVSWIRQPPGKALEWLAFIDWDDDKYYNTSLKTRLTISKDTSKNQVVLTMTNVHPVDTATYYCARISSHHGSSWCTTFDYWGQGALVTVSAASGGSGDKTHTCPPCPAPELLGGPSVFLFPPKPKDTLMISRTPEVTCVVVDVSHEDPEVKFNWYVDGVEVHNAKTKPREEQYNSYVVSVLTVLHQDWLNGKEYKCKVSNKALPAPIEKTISKAKGQPREPQVYTLPPSRDELTKNQVSLTCLVKGFYPSDIAVEWESNGQPENNYKTTPPVLDSDGSFFKKLTVDKSRWQQGNVFSCSVLHEALHSHYTQKSLSLSPG |  |  | 3.6 ng/mL | 7.94 ng/mL | 2.19 ng/mL | 3.61 ng/mL |  | 
MX1029 (antibody) EIVLTQSPGTLSLSPGETATLSCRASQSFSSDLAWYQQKPGQAPRLLIYGASSRATGIPDRFSGSGSGTDFTLTISRLEPADFAVYYCQQYGSSPPVTFGGGTKVEIKGGSSGEIVLTQSPGTLSLSPGETATLSCRASQSFSSDLAWYQQKPGQAPRLLIYGASSRATGIPDRFSGSGSGTDFTLTISRLEPADFAVYYCQQYGSSPPVTFGGGTKVEIKGGGGSGGSGSGGGGSASGSGEVQLVESGGGLIQPGGSLRLSCAASGVIVSYNYMNWVRQAPGKGLEWVSVIYSGGSTFYADSVRGRFTISRDNSKNTLYLQMNSLRAEDTAVYYCARDLGPAGAFDIWGLGTMVTVSSGGSSGEVQLVESGGGLIQPGGSLRLSCAASGVIVSYNYMNWVRQAPGKGLEWVSVIYSGGSTFYADSVRGRFTISRDNSKNTLYLQMNSLRAEDTAVYYCARDLGPAGAFDIWGLGTMVTVSSASGGSGDKTHTCPPCPAPELLGGPSVFLFPPKPKDTLMISRTPEVTCVVVDVSHEDPEVKFNWYVDGVEVHNAKTKPREEQYNSYVVSVLTVLHQDWLNGKEYKCKVSNKALPAPIEKTISKAKGQPREPQVYTLPPSRDELTKNQVSLTCLVKGFYPSDIAVEWESNGQPENNYKTTPPVLDSDGSFFKKLTVDKSRWQQGNVFSCSVLHEALHSHYTQKSLSLSPG |  |  | 8.62 ng/mL | 34.1 ng/mL | 3.79 ng/mL | 6.78 ng/mL |  | 
A23-58.1HC/58.1LC_93VGLTG (antibody, V domains shown) VH: QMQLVQSGPEVKKPGTSVKVSCKASGFTFTSSAVQWVRQRQRLEWIGWIVVGSGNTNYAQKFQERVTITRDMSTSTAYMELSSLRSEDTAVYYCAAPNCSNVVCYDGFDIWGQGTMVTVSS VL: EIVLTQSPGTLSLSPGERATLSCRASQSVSSSYLAWYQQKPGQAPRLLIYSASSRATGIPDRFSGSGSGTDFTLTISRLEPEDFAVYFCQQYVGLTGWTFGQGTKVEIK |  |  |  |  |  |  | 3.4 nM | 11.5 nM
